Measurements reported in PubChem BioAssay AID624099 (ICCB-Longwood, 2012)
The whole screen tested about 21,000 reagents; shown is a random part of them. Over the whole deposit, 497 (2.4%) were called active. 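Higher z means weaker E2 silencing; only reporter increases were scored, and knock-downs that hurt cell survival may mask genuine repressor factors.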 Reagents against one gene are numbered here. Reagent sequences are not shown.

Purpose: 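Host factors E2 relies on to silence an HPV18 LCR reporter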 (primary screen)
Cells: human C33A cervical carcinoma cells (HPV-negative) stably expressing BPV1 E2 and an HPV18 LCR luciferase reporter
Knock-down reagent: siRNA pool against human genes, 40 nM
Duration: 72 h
Read-out: 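Per-well luciferase luminescence, z-scored on each plate against the plate mean and SD with control wells left out, then averaged across three replicate plates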
Scale: mean z-score and z-score: higher = stronger reporter signal, weaker E2 silencing
Call rule: 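Hit if mean z-score reaches 2 and two or more of three replicate z-scores also reach 2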

With knock-down of DENND3, the screen gave mean z-score -1.33; z-score, replicate A = -1.2; z-score, replicate B = -1.43; z-score, replicate C = -1.37; inactive. Knock-down of CFAP68 resulted in: mean z-score -0.36; z-score, replicate A = -0.7; z-score, replicate B = -0.09; z-score, replicate C = -0.29; inactive. Against GPHB5 the deposit lists mean z-score -0.11; z-score, replicate A = -0.21; z-score, replicate B = 0.01; z-score, replicate C = -0.14; inactive. With knock-down of PDE1A, the screen gave mean z-score 0.44; z-score, replicate A = 0.45; z-score, replicate B = 0.33; z-score, replicate C = 0.53; inactive. Knock-down of TMEM14A came out at: mean z-score -0.03; z-score, replicate A = -0.4; z-score, replicate B = 0.05; z-score, replicate C = 0.26; inactive. After knock-down of SGCZ the results were mean z-score 0.05; z-score, replicate A = 0.41; z-score, replicate B = 0.27; z-score, replicate C = -0.53; inactive.

With knock-down of SLC22A23 #1 the results were mean z-score 0.75; z-score, replicate A = 1.15; z-score, replicate B = 0.62; z-score, replicate C = 0.49; inactive. Knock-down of SLC22A23 #2 gave: mean z-score -0.08; z-score, replicate A = 0.46; z-score, replicate B = -0.4; z-score, replicate C = -0.32; inactive. Depletion of PANK1 gave: mean z-score 1.25; z-score, replicate A = 1.54; z-score, replicate B = 1.14; z-score, replicate C = 1.06; inactive. After knock-down of ZNF69, the screen gave mean z-score -0.43; z-score, replicate A = -0.07; z-score, replicate B = -0.54; z-score, replicate C = -0.69; inactive. Against OR10H2, the entry reads mean z-score -0.51; z-score, replicate A = -0.33; z-score, replicate B = -0.91; z-score, replicate C = -0.29; inactive. Silencing of GNG8 came out at: mean z-score -0.22; z-score, replicate A = 0; z-score, replicate B = -0.28; z-score, replicate C = -0.37; inactive.

2 of these entries, reformatted:
ZNF69
- mean z-score: -0.43
- z-score, replicate A: -0.07
- z-score, replicate B: -0.54
- z-score, replicate C: -0.69
- Outcome: inactive

OR10H2
- mean z-score: -0.51
- z-score, replicate A: -0.33
- z-score, replicate B: -0.91
- z-score, replicate C: -0.29
- Outcome: inactive
